Measured values from several laboratories, pooled; numbers as filed in NIAID ChemDB.

Common to all: tests in culture; organism: HIV-1; measure: EC50

ECn: concentration that inhibits the pathogen or its effect by n%. Neighbouring rows are from separate reports. Blank or dashed fields: not listed here.

smiles,strain,changes,cells,read by,setting,value
CO[C@H]1O[C@@H](n2ccc(=O)[nH]c2=O)C[C@@H]1N=[N+]=[N-],-,-,CEM-F + CEM,p24,-,2.76 µM
Cc1cc(N)c(C)c2c1[nH]c1c(Cl)cccc12,BaL,-,TZM-bl,luminescence,-,12.1 µM
CC(=O)O[C@@H]1[C@H](OC(=O)CC(C)C)c2c(ccc3ccc(=O)oc23)OC1(C)C,-,-,Monocytes,p24,6 d,<20 µg/mL
O=c1[nH]c(=O)n([C@H]2C[C@H](F)[C@@H](CO)O2)cc1Br,IIIB,-,HuT-78 + HUT 78,antigen,-,3.4 µM
CN1C(=O)CN=C(c2ccccc2)c2cc(Cl)ccc21,SF162,-,U1,-,-,12 µM
COCCNC(=O)[C@@H](NC(=O)[C@H](Cc1ccc(OC)c(OC)c1OC)C[C@H](O)[C@H](Cc1ccccc1)NC(=O)OC(C)(C)C)C(C)C,-,-,Macrophages HIV-1 + Macrophage,-,"chronic infection, inside macrophages",<1 µM
Cc1nnc(C(C)C)n1C1C[C@H]2CC[C@@H](C1)N2CC[C@H](NC(=O)C1CCC(F)(F)CC1)c1ccccc1,NL4-3,-,TZM-bl,luminescence,-,>1000 µM
COc1cc2c(OC3OCC(O)(CO)C3OC3OCC(O)C(O)C3O)c3c(c(-c4cc5c(cc4O)OCO5)c2cc1OC)C(=O)OC3,NL4-3,-,A549,luciferase,-,48.6 µM
Nc1nc(=O)n(C=C=CCO)cc1F,-,-,PHA-PBM + PBM,cytopathic effect,-,3.8 µM
CCCCC/C=C\C/C=C\C/C=C\C/C=C\CCCC(=O)NCCO,NL4-3-Luc VSV pseudotyped,-,Jurkat cells,luciferase,-,>10 µM
[N-]=[N+]=N[C@H]1C[C@H]2O[C@@H]1COc1nc(=O)c(I)cn12,-,-,CEM-F + CEM,p24,-,27.1 µM
Cc1cn([C@H]2C[C@H](N=[N+]=[N-])[C@@H](CO)O2)c(=O)[nH]c1=O,IIIB,-,HuT-78 + HUT 78,antigen,-,0.031 µM
CC1(C)Oc2ccc3ccc(=O)oc3c2[C@@H](OC(=O)C23CCC(C)(C(=O)O2)C3(C)C)[C@H]1OC(=O)C12CCC(C)(C(=O)O1)C2(C)C,-,-,Monocytes,p24,17 d,<0.000016 µM
Cc1c(C(=O)NN2CCCCC2)nn(-c2ccc(Cl)cc2Cl)c1-c1ccc(Cl)cc1,NL4-3-Luc VSV pseudotyped,-,Jurkat cells,luciferase,-,>5 µM
Cc1cn([C@H]2CC[C@@H](CO)O2)c(=O)[nH]c1=O,A012B Clinical isolate,-,HT4 + HT4-6C,plaque count,-,200 µM
CCOc1ccccc1N1CCN(C(=O)c2cc3cc4c(cc3[nH]2)OCO4)CC1,IIIB,-,HT4lacZ-1/IIIB + HT4 LacZ-1,syncytia,-,1.62 µM
Cc1cn([C@H]2C[C@H](N=[N+]=[N-])[C@@H](CO)O2)c(=O)[nH]c1=O,SC422661.8,-,TZM-bl,p24 / ELISA,-,0.09834 µM
COc1ccccc1N1CCN(C(=O)c2cc3cc4c(cc3[nH]2)OCO4)CC1,IIIB,-,HT4lacZ-1/IIIB + HT4 LacZ-1,syncytia,-,11.76 µM
COc1ccc(-c2oc3c4c(cc(O)c3c(=O)c2O)OC(C)(C)CC4)cc1,BK132,-,CEMx174,PCR,-,3.27 µM
Cc1cc(S(N)(=O)=O)ccc1NC(=O)COc1ccc(Cl)cc1C(=O)c1cc(Cl)cc(C#N)c1,NNRTI-resistant (RT K103N V108I),RT-K103N V108I,MAGI,β-galactosidase,-,0.00063 µM
CCCCC/C=C\C/C=C\C/C=C\C/C=C\CCCC(=O)NCCc1ccc(O)c(O)c1,NL4-3-Luc VSV pseudotyped,-,Jurkat cells,luciferase,-,1 µM
[N-]=[N+]=N[C@H]1C[C@H]2O[C@@H]1COc1nc(=O)c(Br)cn12,-,-,CEM-F + CEM,p24,-,28 µM
c1cc(CN2CCCNCCNCCCNCC2)ccc1CN1CCCNCCNCCCNCC1,BaL,-,TZM-bl,luminescence,-,>1000 µM
COc1ccc(CN[C@@H](C(=O)N[C@H](C(=O)NCc2nc3ccccc3[nH]2)C(C)C)[C@H](O)[C@H](Cc2ccccc2)NC(=O)[C@@H](NC(=O)OCc2ccccc2)C(C)(C)C)cc1,BaL,-,Monocytes + Monocyte,p24,-,0.0076 µM
Nc1ccn([C@H]2CO[C@@H](CO)O2)c(=O)n1,LAV,-,PBM,RT activity,-,0.0047 µM
[N-]=[N+]=N[C@H]1C[C@H]2O[C@@H]1COc1nc(=O)ccn12,-,-,CEM-F + CEM,p24,-,4.95 µM
CC(=O)N[C@@H](CS)C(=O)O,LAV,-,U1 (HIV-1 LAV PMA stimulated) + U1,RT activity,-,<15000 µM
O=C1Nc2ccc(Cl)cc2S(=O)(=O)c2c[nH]cc21,-,-,CEM + MT-4,cytopathic effect / MTT,-,10 µM
O=c1[nH]c(=O)n([C@H]2C[C@H](F)[C@@H](CO)O2)cc1I,IIIB,-,HuT-78 + HUT 78,antigen,-,4.4 µM
Cc1cn([C@H]2C[C@H](N=[N+]=[N-])[C@@H](CO)O2)c(=O)[nH]c1=O,ddI-resistant,-,PBL,p24,-,0.001 µM
Cc1cn([C@H]2C[C@H](N=[N+]=[N-])[C@@H](CO)O2)c(=O)[nH]c1=O,LAV-1,-,PBMC(PHA STIM.) + PBMC,plaque count,-,0.006 µM
Cc1cc2c(c(-c3cc(C)cc4c3OP(=O)(OC[C@@H]3C=C[C@H](n5cc(C)c(=O)[nH]c5=O)O3)OC4)c1)OP(=O)(OC[C@@H]1C=C[C@H](n3cc(C)c(=O)[nH]c3=O)O1)OC2,-,-,CEM/0 (wild type),cytopathic effect / syncytia,-,0.37 µM
O=P(O)(O)Cc1cc2c(O)c(c1)Sc1cc(CP(=O)(O)O)cc(c1O)Sc1cc(CP(=O)(O)O)cc(c1O)Sc1cc(CP(=O)(O)O)cc(c1O)S2,-,NNRTI-resistant,TZM-bl + MT-2,luciferase,-,1 µM
Cc1cn([C@H]2C[C@H](N=[N+]=[N-])[C@@H](CO)O2)c(=O)[nH]c1=O,IIIRF,-,MOLT-4/8 + MOLT-4,p24,-,0.013 µM
Cc1ccnc2c1NC(=O)c1cccnc1N2C1CC1,HIVRTMF (RT L74V),RT-L74V T215Y,HT4 + HT4 LacZ-1,plaque count,-,0.05 µM
CC(=O)SCCOP(=O)(OCCSC(C)=O)OC[C@@H]1CC[C@H](n2ccc(N)nc2=O)O1,IIIRF,-,MOLT-4/8 + MOLT-4,p24,-,0.16 µM
Cc1cn([C@H]2C[C@H](N=[N+]=[N-])[C@@H](CO)O2)c(=O)[nH]c1=O,U317-8 Clinical isolate ZDV-resistant,RT-M41L L210W T215Y,HT4 + HeLa,syncytia,-,2 µM
CCCCCCCCCCCCCC(=O)OC[C@H](COP(=O)(O)OP(=O)(O)OC[C@@H]1CC[C@H](n2cc(C)c(=O)[nH]c2=O)O1)OC(=O)CCCCCCCCCCCCC,BRU,-,CEM/TK-,p24,-,10.1 µM
Cc1cn([C@H]2C[C@H](N=[N+]=[N-])[C@@H](CO)O2)c(=O)[nH]c1=O,LAV,-,U1(HIV-1 (LAV)) + U1,RT activity,-,>1 µg/mL
O=c1[nH]cnc2c1ncn2[C@H]1CC[C@@H](CO)O1,IIIRF,-,MOLT-4/8 + MOLT-4,p24,-,13.8 µM
Cc1cn([C@H]2CC[C@@H](CO)O2)c(=O)[nH]c1=O,-,-,HeLa + HELA CD4+,plaque count,-,100 µM

The first 3 rows once more:

smiles	strain	changes	cells	read by	setting	value
CO[C@H]1O[C@@H](n2ccc(=O)[nH]c2=O)C[C@@H]1N=[N+]=[N-]	-	-	CEM-F + CEM	p24	-	2.76 µM
Cc1cc(N)c(C)c2c1[nH]c1c(Cl)cccc12	BaL	-	TZM-bl	luminescence	-	12.1 µM
CC(=O)O[C@@H]1[C@H](OC(=O)CC(C)C)c2c(ccc3ccc(=O)oc23)OC1(C)C	-	-	Monocytes	p24	6 d	<20 µg/mL